Reference: patent publication US10428320B2, “Crystal structure of Staphylococcus aureus Autolysin E, method of producing the crystal and its use in screening methods” (J. Stefan Institute, priority 2015, dated 2019)

Tested on: S. aureus biofilm formation
Experiment: Biofilm formation assay (crystal violet, OD 595 nm)
Format: cell-based, Staphylococcus aureus
Settings: enzyme added at 0, 0.5, 1, 2 and 5 μM, pH 6, 48 hours, 30° C.
Experimental: • The effect of recombinant autolysins on the S. aureus biofilm formation was performed as described [Merritt et al. 2011]. In brief, saturated culture of S. aureus grown overnight in BHI medium was diluted 1:100 in buffered BHI medium (supplemented with 0.1 M phosphate buffer pH 6.0 containing 0, 0.5, 1, 2 and 5 μM concentration of individual enzyme. 100 μl of each diluted culture was pipetted in 96-well plate (TPP). The plates were covered and incubated in a humidified incubator at 30° C. After 48 hours, the media was removed and the plates were three times washed with water. After the last washing step all remaining liquid was removed and 125 μl of 0.1% crystal violet was added to each well to dye the attached cells. After 10 minutes of incubation at the room temperature, the solution of crystal violet was removed and plates were washed several times with water until all unbound dye was removed. After the plates were completely dried at room temperature, the dyed biofilms were dissolved in 200 μl of 30% acetic acid. After 20 minutes of incubation at room temperature, the plates were briefly mixed and 100 μl of the crystal violet/acetic acid solution was transferred to a fresh 96 well micro-titer plate and the optical density of the samples was measured ad 595 nm. All experiments were performed in triplicates with AtlE, AtlA A138E mutant, and glu-AtlA domain assayed at pH 6. 6. […]

B1: AtlE: recombinant glucosaminidase domain of Autolysin E of S. aureus Mu50, encoded by SAV2307 (protein)
chain: SAAANDVNYSFDEAVSMQQGKGIVQTKEEDGKFVEANNNEIAKAMTISHKDNDMKYMDITEKVPMSESEVNQLLKGKGILENRGKVFLEAQEKYEVNVIYLVSHALVETGNGKSELAKGIKDGKKRYYNFFGIGAFDSSAVRSGKSYAEKEQWTSPDKAIIGGAKFIRNEYFENNQLNLYQMRWNPENPAQHQYASDIRWADKIAKLMDKSYKQFGIKKDDIRQTYYK
**Q.** With B1 as the molecule, how does the “effect on biofilm formation” value read?
**A.** increased the formation of biofilms in a concentration dependent manner
